A mixed list of measured activities; the numbers were collected in NIAID ChemDB.

Shared fields: tests on isolated targets; organism: HIV-1; protein: Reverse transcriptase; endpoint: Ki

Blank or dashed fields: not listed here.

structure | strain or isolate | changes | read by | setting | result
O=c1cnc2ccccc2n1CCNC(=S)Nc1ccc(Br)cn1 | - | RT-Y188L | nucleotide incorporation | - | 0.8 µM
Cc1cn([C@H]2C=C[C@@H](COP(=O)(O)OP(=O)(O)OP(=O)(O)O)O2)c(=O)[nH]c1=O | - | RT-WT | RT activity | - | 0.02 µM
Cc1cc(C)cc(C(=O)c2cc(Cl)ccc2OCCN2C(=O)NC(=O)C(C)C2C)c1 | - | K103N + Y181C | RT activity | pseudotyped | 8.6 µM
Nc1ncnc2c1ncn2CCOCP(=O)(O)OP(=O)(O)OP(=O)(O)O | - | RT-L74V | nucleotide incorporation / radiometric | - | 0.43 µM
O=C1CCN(CCOc2ccc(Cl)cc2C(=O)c2cc(Cl)cc(Cl)c2)C(=O)N1 | - | K103N + Y181C | RT activity | pseudotyped | 5.8 µM
Nc1ncnc2c1ncn2[C@H]1CC[C@@H](COP(=O)(O)OP(=O)(O)OP(=O)(O)O)O1 | - | RT-M184V | nucleotide incorporation / radiometric | - | 0.22 µM
O=c1c2cccn2c2cc(Cl)c(Cl)cc2n1CCNC(=S)Nc1ccc(Br)cn1 | - | RT-Y181I | nucleotide incorporation | - | 0.3 µM
Cc1cn([C@H]2C=C[C@@H](COP(=O)(O)OP(=O)(O)OP(=O)(O)O)O2)c(=O)[nH]c1=O | - | RT-L74V | nucleotide incorporation / radiometric | - | 0.31 µM
O=c1c2cccn2c2ccccc2n1CCNC(=S)Nc1ccc(Br)cn1 | - | RT-Y188L | nucleotide incorporation | - | 2.5 µM
O=C(O)Cn1cnc2c(=O)[nH]c(NC(=O)OCc3ccccc3)nc21 | WT | - | nucleotide incorporation / radiometric | - | 4.7 µM
Cc1cc2c(cc1C)n1cccc1c(=O)n2CCNC(=S)Nc1ccc(Br)cn1 | - | RT-L100I | nucleotide incorporation | - | 0.16 µM
CC(C)(C)OC(=O)Cn1cnc2c(Oc3ccccc3[N+](=O)[O-])nc(NC(=O)OCc3ccccc3)nc21 | NNRTI-resistant | Y188L | nucleotide incorporation / radiometric | - | 211 µM
Nc1ncnc2c1ncn2[C@@H]1O[C@H](COP(=O)(O)OP(=O)(O)OP(=O)(O)O)C[C@@H]1F | - | RT-T215Y | nucleotide incorporation / radiometric | - | 3.7 µM
O=c1c2cccn2c2cccc(F)c2n1CCNC(=S)Nc1ccc(Br)cn1 | - | RT-V106A | nucleotide incorporation | - | 0.015 µM
CC(C)=CCN1Cc2cccc3[nH]c(=S)n(c23)C[C@@H]1C | - | RT-Q161L H208Y | - | - | 0.46 µM

Lines come from different laboratories, so protocols vary.